Results of unrelated studies side by side (data: NIAID ChemDB).

All rows: growth or infection tests; species: Influenza B virus; cell line: MDCK; measure: EC50

Blank or dashed fields: not listed here. Two numbers with a dash give a range or band. ECn: concentration that inhibits the pathogen or its effect by n%. Lines come from different laboratories, so protocols vary.

smiles | read by | strain | result
CCNC1C2CCCC1[C@@H](C)C2 | plaque count | - | 61.9 µM
CCC(CC)[C@H](NC(C)=O)[C@@H]1C[C@@H](C(=O)O)C[C@H]1N=C(N)N | - | Beijing/184/93 | 0.09 µM
Nc1nccc(NCC2(CO)CC(Cc3ccccc3)C2)n1 | plaque count | B/GIFU/2/73 | 3–12 µM
CC=NC(=N)c1nc(-c2cccc(C)c2)n(COCCO)n1 | cytopathic effect | Singapore | >100 µg/mL
CC1=C(C)C2(C)CC[C@@H](C(C)C)C1C2N | plaque count | - | >50 µM
Nc1ncc(N)c(NCC2(CO)CC(CCc3ccccc3)C2)n1 | plaque count | B/GIFU/2/73 | 13–17 µM
C=C(N=CC)c1nc(-c2ccc(OC)cc2)n([C@@H]2O[C@H](CO)[C@@H](O)[C@H]2O)n1 | cytopathic effect | Singapore | >200 µg/mL
COc1cc(NCC2(CO)CCC2)nc(N)n1 | plaque count | B/GIFU/2/73 | 50–55 µM
CC(C)[C@@H]1CCC2(C)C(N)C1[C@H](C)[C@@H]2C | plaque count | - | >50 µM
CCC(CC)[C@H](NC(C)=O)[C@@H]1[C@H](O)[C@@H](C(=O)O)C[C@H]1N=C(N)N | - | B/Beijing/184/93 | 0.06 µM
CC=NC(=N)c1nc(-c2ccccc2)n(COCCO)n1 | cytopathic effect | Singapore | >100 µg/mL
CCNC1C2CCCC1(C)[C@@H](C)[C@H]2C | plaque count | - | >100 µM
CCC(CC)O[C@@H]1C=C(C(=O)O)C[C@H](N)[C@H]1NC(C)=O | plaque count | Memphis/3/89 | 0.045 µM
C=C(N=CC)c1nc(-c2cccc(C)c2)n(C2O[C@H](CO)[C@@H](O)[C@H](O)[C@H]2O)n1 | cytopathic effect | Singapore | >200 µg/mL
N#CNc1nncs1 | plaque count | B/Maryland/11/59 | 0.75 µg/mL
CCC(CC)[C@H](NC(C)=O)[C@@H]1[C@H](O)[C@@H](C(=O)O)C[C@H]1N=C(N)N | - | Beijing/184/93 | 0.06 µM
C=C(N=CC)c1nc(-c2cccc(C)c2)n([C@@H]2O[C@H](CO)[C@@H](O)[C@H]2O)n1 | cytopathic effect | Singapore | >100 µg/mL
CC(=O)N[C@H]1[C@H]([C@H](O)[C@H](O)CO)OC(C(=O)O)=C[C@@H]1N=C(N)N | - | Harbin/07/94 | 0.2 µM
Nc1nc2c(ncn2[C@@H]2O[C@H](CO)[C@@H](O)[C@H]2F)c(=O)[nH]1 | plaque count | B/LEE/40 | 11.5 µM
CC1=C(C)C2C(N)C1[C@@H](C(C)C)C[C@@H]2C | plaque count | - | 35 µM
C=C(N=CC)c1nc(-c2cccc(OC)c2)n(C2O[C@H](CO)[C@@H](O)[C@H](O)[C@H]2O)n1 | cytopathic effect | Singapore | >200 µg/mL
CC[C@H]1C2CCCC(C2N)[C@H]1C | plaque count | - | >100 µM
CC(=O)N[C@H]1[C@H]([C@H](O)[C@H](O)CO)OC(C(=O)O)=C[C@@H]1N=C(N)N | plaque count | B/MASS/3/66 | 0.09 µM
Nc1nc(Cl)c(N)c(NCC2(CO)CC(CCCc3ccccc3)C2)n1 | plaque count | B/GIFU/2/73 | 0.016–0.027 µM

For reference, 2 entries again:

| smiles | read by | strain | result |
|---|---|---|---|
| CCNC1C2CCCC1(C)[C@@H](C)[C@H]2C | plaque count | - | >100 µM |
| COc1cc(NCC2(CO)CCC2)nc(N)n1 | plaque count | B/GIFU/2/73 | 50–55 µM |